Our source for the IC50 and percent reduction of ^125 I-SEA binding values is US5968514, “Methods for stimulating immune responses in a host through the administration of superantigen peptides derived from human immunodeficiency virus type 1 Nef” (dated 1999).

One may read the IC50 as the concentration needed to halve the response being measured. Read a low IC50 as higher potency.

Read-outs that look alike come from different tables or passages of the source.

The target of assay [1] is murine class II MHC molecules on A20 cells (I-A^d and I-E^d).
For assay [2] the target is unchanged. In words: competition with ^125 I-SEA on A20 cells, peptide at 200 µM.
Assay [3] has the same target. In words: competition with ^125 I-MMTV ORF(76-119) on A20 cells.

In assay [1], MMTV ORF(76-119) displayed an IC50 of 20 µM.
MMTV ORF(76-119) (peptide) gave a percent reduction of ^125 I-SEA binding in assay [2] of 63%. The IC50 in assay [3] is 25 µM.
